Reference: the supplement of paper PMC9931576
Changes are numbered by the printed parent chain. Human monoclonal antibodies against the spike receptor-binding domain (heavy:light variable regions). IC50 against pseudoviruses bearing the spike of naturally observed variants; lower = stronger; >10 µg/ml means not reached at the top dose. No active / inactive call. The stated detection limit is 0.0005 µg/ml; values near or below 0.001 µg/ml lie at the floor of the assay.

B1: BD56-1590 (protein)
chain 1: EVQLVQSGAEVKKPGESLKISCKGSGYSFTTFWIGWVRQMPGKGLEWMGIIFPGDSDTRYSPSFQGQVTISADKSISTAYLQWRSLKASDTAMYYCARLSDYVGFDPWGQGTLVTVSS
chain 2: SSELTQDPAVSVALGQTIRITCQGDSLRSYYASWYQQKPGQAPVLVIYDKNKRPSGIPDRFSGSSSGNTASLTISGAQAEDEADYYCNSRDNDDNHYVFGTGTKVTVL
B2: BD56-1592 (protein)
chain 1: QVQLVESGGGVVQPGRSLRLSCVASGFTFKNYGMHWVRQAPGTGLEWVAVISYDGEDKYYADSVMGRFTISRDNSKNMLFLQMYRLRPEDTAVYYCAKAPYTHAYYYYFMDVWGKGATVTVSS
chain 2: NFMLTQPHSVSESPGKTVTIPCTGNSDSIASNHVQWYQQRPGSAPTTVIYEDNERPSGVPDRFSGSIDTSSKTASLTISGLKTEDEADYFCQSYDTNNHVVFGGGTKLTVL
B3: BD56-1593 (protein)
chain 1: EVQLVQSGAEVKKPGESLKISCKTSGYSFISYWIAWVRQMPGKGLEWMGFIYPGDSDARYSPSFQGQVTISAAKSISTAYLQWTSLKASDTAIYYCARQPHSYSSVDYWGQGTLVTVSS
chain 2: QSVLTQPPSASGTPGLRVTISCSGSSSNIGGNAVNWYHQFPGTAPRLLIYNNNERPSGVPDRFSGSKSGTSASLAISGLQSGDEADYYCAAWDDSLNGVVFGGGTKLTVL
B4: BD56-1596 (protein)
chain 1: QAQLVQSGAALKKPGSSVKVSCKASGGTFSSYSISWVRQAPGQGLEWMGGIIPMLGSTKYEQKFQGRVTITADKSTSTAYMDLSSLRFDDSAVYYCARELGYSGMGSNWYFDLWGRGTLVTVSS
chain 2: QSVLTQPPSVSGAPGQRVTISCTGSNSNIGAGYDVHWYQQLPGTAPKLLIYANNNRPSGVPDRFSGSKSGTSASLAITGLQAEDEADYYCQSYDSSLSGSVFGGGTKLTVL
B5: BD56-1599 (protein)
chain 1: QVQLVESGGGVVQPGRSLRLSCAASGFTFRTYGMHWVRQAPGKGLEWVASIWYDGSNEDYADSAKGRFTISRDNSNHTLFLQLNSLRVEDTAVYYCAKDPNPYGSGWFSFHFDYWGQGSLVTVSS
chain 2: QSVLTQPPSVSGAPGQRVTISCTGSSSNIGASYDVHWYQQLPGTAPKLLIYDNNNRPSGVPDRFSGSKSDTSASLAITGLQAEDEADYYCQSYDTSLGRVFGGGTKLTVL
B6: BD56-1603 (protein)
chain 1: EVQLVQSGAEVKKPGESLKISCKVSGYSFISYWIGWVRQMPGKGLEWMGIIYPGDSDTTYSPSFQGLVTFSADKSITTAYLQWSSLRASDTAMYYCARHVTYGSGYYADYWGQGTLVTVSS
chain 2: EIVLTQSPGTLSLSPGERATLSCRASQSVGSSYLAWYQQKPGQAPRLLIYSASSRATGIPDRFSGSGSGTDFTLTISRLEPEDFAVYYCQQYGNSPLIAFGPGTKVDIK
B7: BD56-1604 (protein)
chain 1: EVLLVESGGGFVKPGGSLRLSCAASGFSFSDAWMNWVRQAPGKGLEWVGRIETKTDGGTADYAAPVKARFTISRDDSKNMVYLQMNSLKIEDTAVYYCWFGELLHYYSYGMDVWGQGTTVTVSS
chain 2: DIQMTQSPSTLSASVGDRVTITCRASQSISTWLAWYQQKLGKAPKLLIYKASSLQTGVPSRFSGSGSGTEFTLTISGLRPDDFATYYCQQYNSHFYTFGQGTKLEIK
B8: BD56-1606 (protein)
chain 1: QVQLVESGGGVVQPGRSLRLSCAASRFTFSTYGMHWVRQVPGKGLEWVAFIYYDGSNKYYANSVKGRFTISRDNSKNTLYLQMNSLRAEDTAVYFCAKQIAPYGGSSPYYFDYWGQGTLVTVSS
chain 2: DIQMTQSPSSLSASVGDRVTITCQASQVIDNYLNWYQQKPGKAPKLLIYDASNLEAGVPSRFSGSGSGTDFTFTISSLQPGDGATYYCQQSADLPLSFGGGTKVEIK
B9: BD56-1609 (protein)
chain 1: QVQLVESGGGVVQPGRSLRLSCAASGFTFSNYAMHWVRQAPGKGLEWVAVISYDGSNKYYADSVKGRFTISRDNSKNTLYLQMNSLRAEDTAVHYCAASGGDYIDYYYYDGMDVWGQGTTVTVSS
chain 2: DIQLTQSPSSLSASVGDRVTITCRASQGISSYLAWYQQKPGKAPKLLIYAASTLQSGVPSRFSGSGSGTDFTLTISSLQPEDFATYYCQQLIVYPLTFGGGTKVEIK
B10: BD56-1611 (protein)
chain 1: EVQLVESGGGLVQPGGSLRLSCAASGFTFSDYDMHWVRQRPGKGLEWVSTIGTAGDTYYRGSVKGRFTISRENAKSSLYLQMKSLRDGDTAVYYCARAQYSSNLYPRLDAWGQGTLVTVSS
chain 2: DIQMTQSPSSLSASVGDRVTITCRASQTIRDFLNWYQQKPGKAPKLLIYAASSLQSGVPSRFSGSGSGTDFTLTISSLQPEDFATYSCQQSYSSEWTFGQGTKVEIK
B11: BD56-1614 (protein)
chain 1: EVQLVQSGGGLVQPGGSLRLSCAASGFIFGDYSMNWVRQAPGKGLEWVSYISSSSRTIYYAASVKGRFTISRDNAKNSLYLQMSSLRDEDTAMYYCARADLWGYDIVTDYSGLLDYWGQGTLVTVSS
chain 2: EIVLTQSPGTLSLSPGERATLSCRASQTVSSTYLAWYQQKPGQAPRLLIYGASSRATGIPDRFTGSGSGTDFTLTISRLEPEDFALYYCQQSDTPPATFGQGTKVDIK
B12: BD56-1617 (protein)
chain 1: QVQLVQSGAEVKKPGSSVKVSCKASGGTFSSYTITWVRQAPGQGLEWMGRIIPFLGVPNYAQKFQDRVTITADKSTSTAYMELRSLRSEDTAVYFCARVAPMATNDWYFDLWGRGTLVTVSS
chain 2: B4 chain 2 with A52G, N54S, G99D

Legend:
Test in all cases: pseudovirus neutralization IC50; higher = weaker neutralization
[1] = biological target: SARS-CoV-2 Omicron BA.1 spike pseudovirus
Description: (§1)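 Single-round VSV luciferase pseudovirus mixed with antibody dilutions for 1 h and put on Huh-7 cells for about a day; IC50 from the dose curve.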

[2] = biological target: SARS-CoV-2 Omicron BA.2 spike pseudovirus
Description: as §1

[3] = biological target: SARS-CoV-2 Omicron BA.2.75 spike pseudovirus
Description: as §1

[4] = biological target: SARS-CoV-2 Omicron BA.5 spike pseudovirus
Description: as §1

[5] = biological target: SARS-CoV-2 Omicron BQ.1.1 spike pseudovirus
Description: as §1

[6] = biological target: SARS-CoV-2 Omicron XBB spike pseudovirus
Description: as §1

[7] = biological target: SARS-CoV-2 early D614G spike pseudovirus
Description: as §1

Row | Binder | pseudovirus neutralization IC50 [1] [µg/mL] | pseudovirus neutralization IC50 [2] [µg/mL] | pseudovirus neutralization IC50 [3] [µg/mL] | pseudovirus neutralization IC50 [4] [µg/mL] | pseudovirus neutralization IC50 [5] [µg/mL] | pseudovirus neutralization IC50 [6] [µg/mL] | pseudovirus neutralization IC50 [7] [µg/mL]
1 | B1 | 2.4 | 2.43 | 1.37 | 1.31 | 2.35 | 3.48 | 2.04
2 | B2 | > 10 | > 10 | > 10 | > 10 | > 10 | > 10 | 3.84
3 | B3 | 2.99 | 2.03 | 0.351 | 0.568 | 0.868 | 1.42 | 2.04
4 | B4 | 0.254 | 0.24 | 0.105 | 2.73 | 4.15 | 3.44 | 0.77
5 | B5 | > 10 | > 10 | > 10 | > 10 | > 10 | > 10 | > 10
6 | B6 | > 10 | > 10 | > 10 | > 10 | > 10 | > 10 | > 10
7 | B7 | > 10 | > 10 | > 10 | > 10 | > 10 | > 10 | > 10
8 | B8 | > 10 | > 10 | > 10 | > 10 | > 10 | > 10 | > 10
9 | B9 | 0.005 | 0.00211 | 0.00777 | > 10 | > 10 | > 10 | 0.0185
10 | B10 | > 10 | > 10 | > 10 | > 10 | > 10 | > 10 | > 10
11 | B11 | > 10 | > 10 | > 10 | > 10 | > 10 | > 10 | > 10
12 | B12 | 0.0416 | 0.0507 | 0.0874 | 4.56 | > 10 | 7.33 | 0.669
